Data from patent US6423707B1, “Nitroimidazole ester analogues and therapeutic applications” (California Pacific Medical Center, priority 2000, dated 2002).

Tested on: metronidazole resistant H. pylori isolate (ATCC strain 43579)
Experiment: Helicobacter pylori microbicidal assay (Example 12)
Assay type: cell-based
Details: for MBC (Minimal Bactericidal Concentration): lowest concentration that killed 100% of the H. pylori working solution, ATCC strain 43579, metronidazole-resistant, 72 hours; for Bactericidal Activity Index: relative to positive control (=1), ATCC strain 43579

Cc1ncc([N+](=O)[O-])n1CCOC(=O)[C@H](C)ON=C1c2cc([N+](=O)[O-])cc([N+](=O)[O-])c2-c2c1cc([N+](=O)[O-])cc2[N+](=O)[O-]
MBC (Minimal Bactericidal Concentration): 17 µg/mL (≈ 28.3 µM)
Bactericidal Activity Index: 5.2

Cc1ncc([N+](=O)[O-])n1CCOC(=O)c1cc([N+](=O)[O-])c(Cl)c([N+](=O)[O-])c1
MBC (Minimal Bactericidal Concentration): 63 µg/mL (≈ 158 µM)
Bactericidal Activity Index: 1.4

≈ marks a conversion by molar mass, not a printed value.
